Assay results from patent US9499496B2, “Inhibitors of respiratory syncytial virus” (University of Kansas, priority 2012, dated 2016).

Tested on: RSV
Experiment: Time of addition CPE assay
Type: cell-based, RSV Long strain
Conditions: point of intervention in viral life cycle
Protocol: Assay Description: HEp-2 cells were plated in 96 well black tissue culture plates at 10,000 cells per well in 80 μl and incubated 24 hours at 37° C., 5% CO2. All cell plating was conducted using a Matrix WellMate™ and cells were maintained at room temperature with stirring during the plating process. Compounds were diluted in media to give a final concentration of 25 μM and added to plates at −1, 0, 1, 4, 6, 20 and 24 hours post-infection (p.i.). The cells were infected with RSV Long strain at an MOI of 3 and the assay plates were incubated for six days at 37° C., 5% CO2 and 90% relative humidity.
The Cell Titer Glo® assay was used to determine viability of the cells. The assay plates were equilibrated to room temperature for 10 minutes and then an equal volume of Cell Titer-Glo reagent (Promega Inc.) was added to each well. Plates were incubated for 10 min at room temperature and luminescence was measured using a multi-label plate reader with an integration time of 0.1 s.
A cell-based assay was used to determine the ability of the probe to inhibit different stages of a single round of viral replication. […] Compounds B and F (diamonds and squares, respectively) are of similar chemical structure. The percent cell viability values at each time point for the respective molecules are compared with that of ribavirin (RBV). […]

## COCCCNC(=O)c1ccc(Cn2c(=O)c3ccccc3n(Cc3ccc(C(C)C)cc3)c2=O)cc1 [Compound A, 4-((1-(4-isopropylbenzyl)-2,4-dioxo-1,2-dihydroquinazolin-3(4H)-yl)methyl)-N-(3-methoxypropyl)benzamide]
  MOA: post-entry inhibitor

## NC(=O)c1ncn([C@@H]2O[C@H](CO)[C@@H](O)[C@H]2O)n1 [ribavirin, reference compound]
  MOA: post-entry
